Pooled drug test results. Numbers come from NIAID ChemDB, via PubChem.

Shared fields: cytotoxicity tests; read-out: CC50

a–b is a range or a potency band.

SMILES | cells | read by | result
Cc1cn2c(nc1=O)OC1[C@H]2O[C@H](COC(c2ccccc2)(c2ccccc2)c2ccccc2)[C@H]1O | HL-60 |  | >1000 µM
COc1ccc(-c2cnc3nc(N)nc(N4CCN(CCOc5ccccc5)CC4)c3n2)cc1OC | Huh7 | ATP | >20 µM
Cc1cn([C@@H]2O[C@H](CO)[C@@H](F)[C@H]2N=[N+]=[N-])c(=O)[nH]c1=O | HL-60 |  | >1000 µM
COc1ccc2nc(Cl)c(/C=C/C(=O)c3ccc(C)s3)cc2c1 | PBMC | MTS | 13 µM
O=S(=O)(Cc1ccccc1)c1cccc[n+]1[O-] | CEM | cell count | 36 µg/mL
O=C(NCCc1ccc2c(n1)NCCC2)Nc1cccc(-c2ccc(F)cc2F)n1 | PBMC |  | 50 µM
CCO/N=C/c1c(C)cc(OCCC2CCN(c3ccc(C)nn3)CC2)cc1C | MRC-5 | neutral red | >0.1 µg/mL
CC(C)OC(=O)[C@H](C)N[P@](=O)(OC[C@H]1O[C@@H](c2ccc3c(N)ncnn23)[C@](C)(O)[C@@H]1O)OC(=O)C(C)C | Caco2 | MTS | 43 µM
OCC12C(c3ccccc3)C3(CO)C4N(Cc5ccccc5)C1C1(CO)C(C5C=CC=CC5)C4(CO)C3N(Cc3ccccc3)C21 | EPG85-257DB |  | 80 µM
O=C1/C(=C/c2ccc(-c3cc(C(F)(F)F)ccc3Cl)o2)SC(=S)N1Cc1ccc(Cl)cc1 | HT-29 | MTT | 8.3 µM
CCO/N=C/c1ccc(OCCC2CCN(c3cccc(C)n3)CC2)cc1 | MRC-5 | neutral red | >0.1 µg/mL
COCC(c1cc(C)ccc1C)S(=O)(=O)c1ccccn1 | CEM | cell count | ≥100 µg/mL
O=C(NCCc1ccc2c(n1)NCCC2)Nc1ccc(Cl)cc1Cl | PBMC |  | 25 µM
Cc1cc(CCCCCCCOc2ccc(C3=NCCO3)cc2)on1 | WIS HELA | crystal violet | 50 µg/mL
c1cc(-c2ccc(NC3CCCC3)n3nc(-c4ccc(OCC5CC5)cc4)cc23)nc(NC2CCCC2)n1 | VERO 76 |  | >100 µM
Cc1cc(=O)oc2cc(OCc3cn(Cc4cc(=O)oc5ccc6ccccc6c45)nn3)ccc12 | V79 | MTT | 48.25 µg/mL
CCCCCOC(=O)Nc1ncnn2c([C@@H]3O[C@H](CO)[C@@H](O)[C@@]3(C)O)ccc12 | Caco2 | MTS | >100 µM
COc1cccc2c1C(=O)c1c(O)c3c(c(O)c1C2=O)C[C@@](O)(C(=O)CO)C[C@@H]3O[C@H]1C[C@H](N)[C@H](O)[C@H](C)O1 | V79 | MTT | 0.19 µM
O=C(NCCSSCCNC(=O)/C(Cc1ccc(O)c(Br)c1)=N/O)/C(Cc1ccc(O)c(Br)c1)=N\O | Replicon cells | XTT | 25.9 µM
Cc1ccc[n+]([O-])c1S(=O)(=O)C(C)c1ccccc1Cl | CEM | cell count | 38 µg/mL
CO/N=C/c1ccc(OCCC2CCN(c3ccc(Cl)nn3)CC2)cc1 | MRC-5 | visual reading | >1 µg/mL
Cc1ccc(C)c(C(CC(C)C)S(=O)(=O)c2cccc[n+]2[O-])c1 | CEM | cell count | 6.2 µg/mL
CC(=O)N1c2ccccc2NC2=C(C(=O)CC(C)(C)C2)C1c1ccc(OCc2ccccc2)cc1 | MT4-LTR-LUC |  | >32 µM
CCCCCOc1ccc(C(=O)N2CCN(c3nc(N)nc4ncc(-c5ccc(OC)c(OC)c5)nc34)CC2)cc1 | Huh7 | ATP | <10 µM
Cc1ccc2nc(Cl)c(/C=C/C(=O)c3cc(C)oc3C)cc2c1 | VERO | MTS | >100 µM
Cc1cn([C@@H]2O[C@H](COC(c3ccccc3)(c3ccccc3)c3ccccc3)[C@@H](OS(C)(=O)=O)[C@@H]2F)c(=O)[nH]c1=O | HL-60 |  | >1000 µM
N#C/C(=C/c1c(Cl)cccc1Cl)S(=O)(=O)c1cccc[n+]1[O-] | CEM | cell count | 11 µg/mL
COc1ccc(-c2cnc3nc(N)nc(N4CCN(C(=O)Nc5ccc(C#N)cc5)CC4)c3n2)cc1OC | Huh7 | ATP | >20 µM
O=C1NC(=NCCc2ccc(Cl)c(Cl)c2)S/C1=C\c1ccc(-c2ccc(C(=O)O)c(O)c2)o1 | Ramos | MTT | >100 µM
Cc1ccc(C)c(C(C)S(=O)(=O)c2ccccn2)c1 | CEM | cell count | 3.1 µg/mL
Cc1ccc2nc(Cl)c(/C=C/C(=O)c3ccc(Br)s3)cc2c1 | CEM | MTS | 31.6 µM
CCCCCOC(=O)Nc1ncnn2c([C@@H]3O[C@H](CO[P@@](=O)(N[C@@H](C)C(=O)OC(C)C)Oc4ccccc4)[C@@H](O)[C@@]3(C)O)ccc12 | Caco2 | MTS | 20 µM
CC(=O)OC[C@H]1O[C@@H](n2cc(C)c(=O)[nH]c2=O)C[C@@H]1F | HL-60 |  | >1000 µM
CC(C)(C)C(=O)Nc1cccc(CCNC(=O)NCc2ccc(Cl)c(Cl)c2)n1 | PBMC |  | 11.4 µM
Cc1cnsc1CCCCCCOc1cccc2ccccc12 | WIS HELA | crystal violet | >50 µg/mL
O=c1[nH]c(=S)ccn1[C@@H]1O[C@H](COP(=O)(O)O)[C@@H](O)[C@H]1O | HeLa-CD4/CCR5 | XTT | >200 µg/mL
COc1ccc(-c2cnc3nc(N)nc(N4CCN(CC(=O)N5CCOCC5)CC4)c3n2)cc1OC | Huh7 | ATP | >20 µM
O=C(NCc1ccc(Cl)cc1)c1c[nH]c2c(F)cccc2c1=O | 10T1/2 |  | 89 µM
Cc1cc(OCCCCCCc2ccnn2-c2ccccc2)c2ccccc2n1 | WIS HELA | crystal violet | 25 µg/mL
O=C1N=C(N2CCOCC2)S/C1=C\c1ccc(-c2ccc(C(=O)O)c(O)c2)o1 | Ramos | MTT | 3.14 µM
CCCC(Sc1cccc[n+]1[O-])c1cc(C)ccc1C | CEM | cell count | 9.2 µg/mL
C=CCO/N=C/c1cc(O)cc(OCCC2CCN(c3ccc(Cl)nn3)CC2)c1 | MRC-5 | visual reading | >1 µg/mL
COc1ccc2nc(Cl)c(/C=C/C(=O)c3sccc3Cl)cc2c1 | VERO | MTS | 14.2 µM
Cc1ccc[n+]([O-])c1S(=O)(=O)Cc1cccc([N+](=O)[O-])c1C | CEM | cell count | 9.6 µg/mL
CCO/N=C/c1ccc(OCCC2CCN(c3ccc(Cl)nn3)CC2)c([N+](=O)[O-])c1 | MRC-5 | visual reading | >1 µg/mL
Cc1ccc(C)c(CS(=O)(=O)c2cccc(C)[n+]2[O-])c1 | CEM | cell count | ≥100 µg/mL
CCO/N=C/c1ccc(OCCC2CCN(c3ccc(Cl)nn3)CC2)c(OC)c1 | MRC-5 | visual reading | >1 µg/mL
FC(F)(F)c1cccc(-c2cc3c(-c4ccnc(NC5CCCC5)n4)ccc(NC4CCCC4)n3n2)c1 | VERO 76 |  | >40 µM
Cc1ccc[n+]([O-])c1SC(C)c1ccccc1 | CEM | cell count | 60 µg/mL
Cc1cn([C@H]2C[C@H](F)[C@@H](COS(C)(=O)=O)O2)c(=O)[nH]c1=O | HL-60 |  | >1000 µM
[O-][n+]1cccc(Cl)c1SCc1ccccc1 | CEM | cell count | >100 µg/mL
COc1ccc(-c2cnc3nc(N)nc(N4CCN(C(=O)Nc5cccc(C(F)(F)F)c5)CC4)c3n2)cc1OC | Huh7 | ATP | <10 µM
Cc1cc(C)n(CCCCCCON2C(=O)COc3c2ccc2ccccc32)n1 | WIS HELA | crystal violet | 100 µg/mL
CC(C)(C)OC(=O)Nc1cccc(CCNC(=O)NCc2ccc(Cl)c(Cl)c2)n1 | PBMC |  | 28 µM
CCO/N=C/c1ccc(OCCC2CCN(c3ccc(C)nn3)CC2)c(O)c1 | MRC-5 | neutral red | >0.1 µg/mL
COc1ccc(OC)c(NC(=O)NCCc2ccc3c(n2)NCCC3)c1 | PBMC |  | 7.7 µM
COc1ccc(-c2cnc3nc(N)nc(N4CCN(Cc5ccc(C)cc5)CC4)c3n2)cc1OC | Huh7 | ATP | >20 µM
O=S(=O)(Cc1ccccc1Cl)c1cccc[n+]1[O-] | CEM | cell count | 19 µg/mL
COc1ccc(CN2C3C4(CO)C(c5ccccc5)C5(CO)C2C2(CO)C(C6C=CC=CC6)C3(CO)C4N(Cc3ccc(OC)cc3)C52)cc1 | EPG85-257P |  | 80 µM
Cc1cc[n+]([O-])c(S(=O)(=O)Cc2ccc(Cl)cc2)c1 | CEM | cell count | 20 µg/mL
CC(C)COC(=O)Nc1ncnn2c([C@@H]3O[C@H](CO)[C@@H](O)[C@@]3(C)O)ccc12 | Caco2 | MTS | >100 µM
Cc1cc(OCCCCCCn2ccnc2)c2ccccc2n1 | WIS HELA | crystal violet | 50 µg/mL
[O-][n+]1cc(Cl)ccc1SCc1ccccc1 | CEM | cell count | 66 µg/mL
Cc1cn([C@@H]2O[C@H](COC(c3ccccc3)(c3ccccc3)c3ccccc3)[C@@H](F)[C@H]2N=[N+]=[N-])c(=O)[nH]c1=O | HL-60 |  | >1000 µM
COc1ccc([N+](=O)[O-])cc1CS(=O)(=O)c1cccc[n+]1[O-] | CEM | cell count | 17 µg/mL
Cc1ccc2nc(Cl)c(/C=C/C(=O)c3ccc[nH]3)cc2c1 | CEM | MTS | 4.9 µM
CC(c1ccc(S(C)(=O)=O)cc1)S(=O)c1cccc[n+]1[O-] | CEM | cell count | 3.8 µg/mL
COc1ccc(OC(=O)N2CCN(c3nc(N)nc4ncc(-c5ccc(OC)c(OC)c5)nc34)CC2)cc1 | Huh7 | ATP | <10 µM
O=S(=O)(Cc1ccccc1)c1c(Cl)ccc[n+]1[O-] | CEM | cell count | 1.5 µg/mL
Oc1ccc(-c2cc3c(-c4ccnc(NC5CCCC5)n4)ccc(NC4CCCC4)n3n2)cc1 | VERO 76 |  | >50 µM
CN(C)c1ccnc(SCc2ccc(Cl)cc2)c1C#N | CEM | cell count | >100 µg/mL
COc1ccc(-c2cnc3nc(NCc4cccs4)nc(N)c3n2)cc1OC | Huh7 | ATP | 10–20 µM
Cc1ccc(C)c(C(C)S(=O)c2cccc[n+]2[O-])c1 | CEM | cell count | 1.6 µg/mL
c1ccc(Oc2ccc(-c3cc4c(-c5ccnc(NC6CCCC6)n5)ccc(NC5CCCC5)n4n3)cc2)cc1 | VERO 76 |  | >40 µM

Repeating the final 7 entries:

{"SMILES": "COc1ccc(OC(=O)N2CCN(c3nc(N)nc4ncc(-c5ccc(OC)c(OC)c5)nc34)CC2)cc1", "cells": "Huh7", "read by": "ATP", "result": "<10 µM"}
{"SMILES": "O=S(=O)(Cc1ccccc1)c1c(Cl)ccc[n+]1[O-]", "cells": "CEM", "read by": "cell count", "result": "1.5 µg/mL"}
{"SMILES": "Oc1ccc(-c2cc3c(-c4ccnc(NC5CCCC5)n4)ccc(NC4CCCC4)n3n2)cc1", "cells": "VERO 76", "result": ">50 µM"}
{"SMILES": "CN(C)c1ccnc(SCc2ccc(Cl)cc2)c1C#N", "cells": "CEM", "read by": "cell count", "result": ">100 µg/mL"}
{"SMILES": "COc1ccc(-c2cnc3nc(NCc4cccs4)nc(N)c3n2)cc1OC", "cells": "Huh7", "read by": "ATP", "result": "10–20 µM"}
{"SMILES": "Cc1ccc(C)c(C(C)S(=O)c2cccc[n+]2[O-])c1", "cells": "CEM", "read by": "cell count", "result": "1.6 µg/mL"}
{"SMILES": "c1ccc(Oc2ccc(-c3cc4c(-c5ccnc(NC6CCCC6)n5)ccc(NC5CCCC5)n4n3)cc2)cc1", "cells": "VERO 76", "result": ">40 µM"}

CCn: concentration that lowers growth or viability of the cells by n%. Rows are shuffled and stem from different studies. Blank or dashed fields: not listed here.